Data source: PubChem BioAssay AID504761 (Drosophila RNAi Screening Center, 2011)
In all, the deposit lists about 22,000 reagents; this is an unselected part of those with a known target gene and a result. Over the whole deposit, 116 (0.52%) are marked active. 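Calls depend on retest data that are not deposited; infection was ranked per plate without normalising between plates; the unit of the infection score is not given.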 The raw values are shown without normalisation. The numbers tell different reagents against one gene apart. A plus sign joins genes that one reagent is predicted to hit. No sequences are given here. The record does not give: the amount of reagent, the time to read-out.

Screen: 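Insect host genes that dengue virus relies on to spread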 (primary screen)
Cell system: D.Mel-2 cells from Drosophila
Reagents: long dsRNA against Drosophila genes
Conditions: infection with dengue virus type 2; dose and infection time not stated
Measured: 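Cells stained for dengue envelope protein and imaged; percent of infected cells per well on duplicate plates, ranked by infection, with stained nuclei counted for cell number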
Direction: infection score: higher = more virus-infected cells; cell count: higher = more cells in the well
Active means: 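Very low infection ranking in both replicate wells (chance probability at most 0.065), then a retest showing infection dropped 1.5-fold or more at p below 0.05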
Meaning of the calls: active = confirmed: knock-down lowers infection; inactive = not picked or not confirmed

| target | dsRNA no. | infection score, replicate 1 | infection score, replicate 2 | cell count, replicate 1 | cell count, replicate 2 | call |
| --- | --- | --- | --- | --- | --- | --- |
| CG13074 (GeneID 39760) | 1 | 0.69 | 4.22 | 5973 | 6512 | inactive |
| TMEM216 + CG11760 | 1 | 15.6 | 16.6 | 6536 | 6403 | inactive |
| CG1701 (GeneID 35661) | 1 | 9.42 | 7.1 | 6436 | 6439 | inactive |
| Tsp42Ea (GeneID 59178) | 1 | 13.6 | 4.87 | 5326 | 2219 | inactive |
| Tsp42Ea (GeneID 59178) | 2 | 10.5 | 19.8 | 1548 | 4560 | inactive |
| lncRNA:CR32661 (GeneID 3772605) | 1 | 12.2 | 23.6 | 2714 | 4390 | inactive |
| lncRNA:CR32661 (GeneID 3772605) | 2 | 21.2 | 20.9 | 4614 | 6305 | inactive |
| Nup58 (GeneID 42342) | 1 | 4.93 | 11.8 | 5844 | 5117 | inactive |
| Nup58 (GeneID 42342) | 2 | 2.11 | 2.93 | 6210 | 6037 | active |
| CG17097 (GeneID 34461) | 1 | 12.6 | 4.82 | 5752 | 5972 | inactive |
| CG17097 (GeneID 34461) | 2 | 6.1 | 4.83 | 5936 | 5217 | inactive |
| Inx7 + cm | 1 | 5.1 | 17.1 | 6161 | 6050 | inactive |
| Odc2 (GeneID 35767) | 1 | 5.59 | 17.1 | 6364 | 5907 | inactive |
| Odc2 (GeneID 35767) | 2 | 3.52 | 3.59 | 6271 | 5847 | inactive |
| FucTB (GeneID 34260) | 1 | – | – | 662 | 497 | inactive |
| Cfp1 + CG17440 | 1 | 31.2 | 13 | 3305 | 6900 | inactive |
| heph (GeneID 48571) | 1 | 0.88 | 0.24 | 6561 | 6613 | inactive |
| heph (GeneID 48571) | 2 | 3.66 | 0.86 | 6171 | 6186 | inactive |
| heph (GeneID 48571) | 3 | 9.46 | 8.96 | 5529 | 4063 | inactive |
| CG13310 (GeneID 39007) | 1 | 0.22 | 3.17 | 6457 | 6117 | inactive |
| CG13310 (GeneID 39007) | 2 | 16.9 | 13.1 | 3157 | 6740 | inactive |
| Bre1 (GeneID 38652) | 1 | 3.57 | 9.44 | 6999 | 6664 | inactive |
| rdgC (GeneID 40224) | 1 | 14.4 | 7.56 | 6857 | 6733 | inactive |
| Cyp6a19 (GeneID 36662) | 1 | 1.56 | 2.64 | 6166 | 6702 | active |
| Notum (GeneID 39751) | 1 | 1.69 | 2.37 | 6105 | 6463 | inactive |
| CG12964 (GeneID 36714) | 1 | 0.05 | 1.34 | 6429 | 7033 | active |
| CG12964 (GeneID 36714) | 2 | 8.34 | 14.1 | 5169 | 4368 | inactive |
| emei (GeneID 39250) | 1 | 4.55 | 7.06 | 6264 | 5664 | inactive |
| emei (GeneID 39250) | 2 | 4.58 | 0.68 | 6269 | 6348 | inactive |
| CG9391 (GeneID 40346) | 1 | 4.15 | 2.05 | 6552 | 6623 | inactive |
| Dmtn (GeneID 40792) | 1 | 10.2 | 13.8 | 4813 | 4390 | inactive |
| Dmtn (GeneID 40792) | 2 | 12.7 | 6.94 | 3619 | 2493 | inactive |
| GluRIIC (GeneID 33275) | 1 | 1.41 | 3.47 | 6019 | 6722 | inactive |
| CNPYb (GeneID 40084) | 1 | 13 | 18.3 | 7002 | 4320 | inactive |
| CG17048 (GeneID 36479) | 1 | 1.91 | 7.41 | 1047 | 1215 | inactive |
| Ae2 (GeneID 39147) | 1 | 19.6 | 1.29 | 3255 | 4729 | inactive |
| Ae2 (GeneID 39147) | 2 | 6.22 | 7.18 | 6352 | 6253 | inactive |
| ERp44 (GeneID 32588) | 1 | 1.43 | 1.41 | 6414 | 6787 | inactive |
| Shc (GeneID 44052) | 1 | 1.8 | 1.93 | 6124 | 6125 | inactive |
| Cyp6a20 (GeneID 36664) | 1 | 12.1 | 5.8 | 6468 | 6618 | inactive |
| Stat92E (GeneID 42428) | 1 | 2.89 | 4.79 | 6372 | 6162 | inactive |

No new results follow: 3 of the entries above.
| target | dsRNA no. | infection score, replicate 1 | infection score, replicate 2 | cell count, replicate 1 | cell count, replicate 2 | call |
| --- | --- | --- | --- | --- | --- | --- |
| Ae2 (GeneID 39147) | 2 | 6.22 | 7.18 | 6352 | 6253 | inactive |
| ERp44 (GeneID 32588) | 1 | 1.43 | 1.41 | 6414 | 6787 | inactive |
| Shc (GeneID 44052) | 1 | 1.8 | 1.93 | 6124 | 6125 | inactive |

The listing continues.
| target | dsRNA no. | infection score, replicate 1 | infection score, replicate 2 | cell count, replicate 1 | cell count, replicate 2 | call |
| --- | --- | --- | --- | --- | --- | --- |
| Hsp27 (GeneID 39078) | 1 | 12 | 2.86 | 5872 | 6190 | inactive |
| Hsp27 (GeneID 39078) | 2 | 2.9 | 3.2 | 6493 | 6445 | inactive |
| Su(H) (GeneID 34881) | 1 | 15.7 | 2.55 | 4342 | 6830 | inactive |
| CG7639 (GeneID 36675) | 1 | 8.55 | 7.33 | 6421 | 6305 | inactive |
| mRpS14 (GeneID 117414) | 1 | 7.64 | 12.3 | 5239 | 5195 | inactive |
| Ppcs (GeneID 42295) | 1 | 2.26 | 9.16 | 6144 | 6637 | inactive |
| RYBP (GeneID 37601) | 1 | 13.2 | 23.6 | 6130 | 6258 | inactive |
| RYBP (GeneID 37601) | 2 | 18.6 | 12.6 | 6679 | 6819 | inactive |
| CG14453 (GeneID 40484) | 1 | 1.12 | 3.93 | 6421 | 6430 | inactive |
| CG14453 (GeneID 40484) | 2 | 1.61 | 3.69 | 7280 | 6616 | inactive |
| CheA7a (GeneID 31672) | 1 | 1.49 | 3.65 | 6117 | 6143 | inactive |
| CG5339 (GeneID 37794) | 1 | 34.4 | – | 5236 | 555 | inactive |
| CG12231 (GeneID 32942) | 1 | 1.42 | 0.03 | 5709 | 6432 | inactive |
| Bcat (GeneID 32297) | 1 | 11.3 | 6.74 | 5065 | 5699 | inactive |
| Bcat (GeneID 32297) | 2 | 20.4 | 14.4 | 5082 | 5559 | inactive |
| CG31054 (retired record) + CG4849 | 1 | 16.9 | 17.8 | 6118 | 5692 | inactive |
| Kcmf1 (GeneID 41082) | 1 | 17.1 | 11 | 5244 | 5521 | inactive |
| Kcmf1 (GeneID 41082) | 2 | 10.4 | 1.98 | 5760 | 5559 | inactive |
| CG8708 (GeneID 35792) | 1 | 37 | 20.5 | 4195 | 5916 | inactive |
| CG8708 (GeneID 35792) | 2 | – | 15.3 | 473 | 6721 | inactive |
| CG18467 (GeneID 36958) | 1 | 13.6 | 11.7 | 5628 | 6703 | inactive |
| CG14511 (GeneID 43445) | 1 | 4.38 | 1.77 | 5885 | 6893 | inactive |
| CG14511 (GeneID 43445) | 2 | 4.54 | 2.73 | 6031 | 5933 | inactive |
| CG3287 (retired record) (GeneID 48441) | 1 | 33.9 | 24.6 | 5259 | 6053 | inactive |
| Tbp (GeneID 37476) | 1 | 2.77 | 1.44 | 6357 | 6581 | inactive |
| CG17190 (GeneID 42386) | 1 | 4.51 | 4.13 | 6518 | 6227 | inactive |
| CG1304 (GeneID 33074) | 1 | 1.41 | 7.29 | 6308 | 6133 | inactive |
| CG1304 (GeneID 33074) | 2 | 3.38 | 4.12 | 6414 | 6356 | inactive |
| CG14606 (GeneID 40866) | 1 | 2.86 | 6.14 | 6301 | 6530 | inactive |
| Dab (GeneID 39866) | 1 | 3.66 | 6.43 | 6117 | 6474 | inactive |
| CG14658 (GeneID 40603) | 1 | 5.23 | 4.52 | 6248 | 7086 | inactive |
| Desi (GeneID 41292) | 1 | 1.44 | 6.78 | 6248 | 6355 | inactive |
| kdn (GeneID 31579) | 1 | 5.06 | 15 | 6404 | 5706 | inactive |
